Results of unrelated studies side by side (data: NIAID ChemDB).

Common to all: growth or infection tests; species: HIV-1; method: RT activity; read-out: EC90

An empty or dashed field is not shown. Lines come from different laboratories, so protocols vary. ECn is the concentration giving n% inhibition of infection, replication or growth.

structure	mutations	strain or isolate	cells	value
COc1cc(OC)cc(C(=O)OCc2nc3ccccc3nc2C)c1	-	89BZ167	PBMC	>100 µM
CCCCCCCCCCCCCC(=O)Nc1nc(N)nc2c1ncn2[C@H]1CO[C@@H](COP(=O)(N[C@@H](C)C(=O)OCC)Oc2ccccc2)O1	-	LAV-1	PBMC	0.89 µM
Nc1ncnc2c1ncn2[C@H]1S[C@@H](CO)[C@@H]1CO	-	xxBRU	PBMC	>100 µM
Nc1nc2c(ncn2[C@H]2CO[C@@H](CO)O2)c(=O)[nH]1	-	LAI	PBMC	2.6 µM
COc1ccc(C[C@H](C[C@H](O)[C@H](Cc2ccccc2)NC(=O)OC(C)(C)C)C(=O)N[C@H](C(=O)N[C@@H](Cc2ccccc2)C(=O)N2CCOCC2)C(C)C)cc1	-	MN	MT-2	0.03 µM
C/C(=N\NC(=O)CN1c2c(-c3ccccc3)n[nH]c2-c2ccccc2S1(=O)=O)c1ccc2ccccc2c1	-	-	PBMC	>100 µM
Cc1cn([C@H]2CO[C@@H](COP(=O)(N[C@@H](C)C(=O)OC(C)(C)C)Oc3ccccc3)O2)c(=O)[nH]c1=O	RT-M184V	LAI	PBMC	>100 µM
CC(C)(C)OC(=O)N1[C@H](CO)CC(F)(F)[C@@H]1n1cc(F)c(=O)[nH]c1=O	-	LAI	PBMC	90.8 µM
COCCNC(=O)[C@@H](NC(=O)[C@H](Cc1cccc(OC)c1)C[C@H](O)[C@H](Cc1ccccc1)NC(=O)OC(C)(C)C)C(C)C	-	MN	MT-2	0.03 µM
C/C(=N\NC(=O)CN1c2c(-c3ccccc3)n[nH]c2-c2ccccc2S1(=O)=O)c1nccs1	-	-	PBMC	>100 µM
COCCNC(=O)[C@@H](NC(=O)[C@H](Cc1ccccc1)C[C@H](O)[C@H](Cc1ccccc1)NC(=O)OC(C)(C)C)C(C)C	-	MN	MT-2	0.1 µM
CCCCCC(=O)Nc1nc(N)nc2c1ncn2[C@H]1CO[C@@H](CO)O1	-	LAV-1	PBMC	>100 µM
COc1ccc(C(=O)OCc2nc3ccccc3nc2C)c(OC)c1OC	-	89BZ167	PBMC	>100 µM
Nc1ncnc2c1ncn2[C@@H]1OC[C@H](/C=C/P(=O)(O)O)C12CC2	-	LAV-1	PBMC	95 µM
CC(=O)O[C@@H]1[C@@H](OC(C)=O)[C@H](C)O[C@@H]2Oc3c(c(=O)n(C)c(=O)n3C)S[C@@H]21	-	LAI	PBMC	123 µM
CC(C)(C)OC(=O)N1[C@H](CO)CC(F)(F)[C@H]1n1cnc2c(Cl)ncnc21	-	LAI	PBMC	>100 µM
C/C(=N\NC(=O)CN1c2c(-c3ccccc3)n[nH]c2-c2ccccc2S1(=O)=O)c1cc2ccccc2o1	-	-	PBMC	>100 µM
O=c1[nH]cnc2c1ncn2[C@H]1S[C@@H](CO)[C@@H]1CO	-	xxBRU	PBMC	>100 µM
COC(=O)[C@H](C)NP(=O)(OC[C@@H]1OC[C@H](n2cc(C)c(=O)[nH]c2=O)O1)Oc1cccc2ccccc12	RT-M184V	LAI	PBMC	0.64 µM
Cc1nc2ccccc2nc1COC(=O)c1ccc(O)cc1	-	89BZ167	PBMC	>100 µM
CC(C)[C@H](NC(=O)[C@H](Cc1ccccc1)C[C@H](O)[C@H](Cc1ccccc1)NC(=O)OC(C)(C)C)C(=O)NCCN(C)C	-	MN	MT-2	0.3 µM
Nc1ncnc2c1ncn2[C@@H]1S[C@H](CO)[C@H]1CO	-	xxBRU	PBMC	>100 µM
COc1ccnc2[nH]cc(C(=O)C(=O)N3CCN(C(=O)c4ccccc4)C[C@H]3C)c12	-	LAI	PBMC	>125 µM
CC(C)(C)OC(=O)N1[C@H](CO)CC(F)(F)[C@@H]1n1ccc(=O)[nH]c1=O	-	LAI	PBMC	>100 µM
COCCCNC(=O)[C@@H](NC(=O)[C@H](Cc1ccc(OC)c(OC)c1OC)C[C@H](O)[C@H](Cc1ccccc1)NC(=O)OC(C)(C)C)C(C)C	-	MN	MT-2	0.03 µM
CCN(CC)C(=O)OC[C@H]1CN(C(=O)c2ccccc2)CCN1C(=O)C(=O)c1c[nH]c2nccc(OC)c12	-	LAI	PBMC	>125 µM
CCOC(=O)[C@H](C)NP(=O)(OC[C@@H]1OC[C@H](n2cnc3c(NC4CC4)nc(N)nc32)O1)Oc1ccccc1	-	LAI	PBMC	0.08 µM
CC(C)(C)OC(=O)N1[C@H](CO)CC(F)(F)[C@@H]1n1cnc2ncnc(Cl)c21	-	LAI	PBMC	>100 µM
CCCCCCCC/C=C\CCCCCCCC(=O)Nc1nc(N)nc2c1ncn2[C@H]1CO[C@@H](COP(=O)(N[C@@H](C)C(=O)OCC)Oc2ccccc2)O1	-	LAV-1	PBMC	2.1 µM
C=CCc1ccc(O)c(-c2cc(CC=C)ccc2O)c1	-	LAV	PBMC	>100 µM
CCOC(=O)[C@H](C)NP(=O)(OC[C@@H]1OC[C@H](n2cnc3c(Cl)nc(N)nc32)O1)Oc1ccccc1	-	LAI	PBMC	0.02 µM
Cc1nc2ccccc2nc1COC(=O)c1ccc(O)cc1O	-	BaL	PBMC	>100 µM
COC(=O)[C@@H](NP(=O)(OC[C@@H]1OC[C@H](n2cc(C)c(=O)[nH]c2=O)O1)Oc1ccccc1)C(C)C	RT-M184V	LAI	PBMC	37.4 µM
CC(C)(C)OC(=O)N1[C@H](CO)CC(F)(F)[C@@H]1n1cnc2ncnc(N)c21	-	LAI	PBMC	>100 µM
COc1cc(C(=O)OCc2nc3ccccc3nc2C)cc(OC)c1OC	-	BaL	PBMC	>100 µM
CC(C)(C)OC(=O)N1[C@H](CO)CC(F)(F)[C@H]1n1cc(F)c(=O)[nH]c1=O	-	LAI	PBMC	75.6 µM
CC(C)[C@H](NC(=O)[C@H](Cc1ccc2c(c1)OCO2)C[C@H](O)[C@H](Cc1ccccc1)NC(=O)OC(C)(C)C)C(=O)N[C@@H](Cc1ccccc1)C(=O)N1CCOCC1	-	MN	MT-2	0.01 µM
C[C@@]1(O)[C@H](O)[C@@H](CO)O[C@H]1n1ccc(N)nc1=O	-	LAI	PBMC	>100 µM
CCCCCCCC/C=C\CCCCCCCCOP(=O)(N[C@@H](C)C(=O)OC)OC[C@@H]1OC[C@H](n2cc(C)c(=O)[nH]c2=O)O1	RT-M184V	LAI	PBMC	23.7 µM
Nc1nc2c(ncn2[C@@H]2OC[C@H](CCP(=O)(O)O)C23CC3)c(=O)[nH]1	-	LAV-1	PBMC	95 µM
CCCCCC(=O)Nc1nc(N)nc2c1ncn2[C@H]1CO[C@@H](COP(=O)(N[C@@H](C)C(=O)OCC)Oc2ccccc2)O1	-	LAV-1	PBMC	33 µM
CC(=O)OC[C@H]1O[C@@H]2Oc3c(c(=O)n(C)c(=O)n3C)S[C@@H]2[C@@H](OC(C)=O)[C@H]1OC(C)=O	-	LAI	PBMC	47.7 µM
CCOCCNC(=O)[C@@H](NC(=O)[C@H](Cc1ccc(OC)c(OC)c1OC)C[C@H](O)[C@H](Cc1ccccc1)NC(=O)OC(C)(C)C)C(C)C	-	MN	MT-2	0.03 µM
CCCCCCCCCCCCCCCC(=O)Nc1nc(N)nc2c1ncn2[C@H]1CO[C@@H](COP(=O)(N[C@@H](C)C(=O)OCC)Oc2ccccc2)O1	-	LAV-1	PBMC	0.5 µM
COc1cccc(OC)c1C(=O)OCc1nc2ccccc2nc1C	-	BaL	PBMC	>100 µM
C/C(=N\NC(=O)CN1c2c(-c3ccccc3)n[nH]c2-c2ccccc2S1(=O)=O)c1sccc1Br	-	-	PBMC	>100 µM

For reference, 3 entries again:

structure,mutations,strain or isolate,cells,value
COc1cccc(OC)c1C(=O)OCc1nc2ccccc2nc1C,-,BaL,PBMC,>100 µM
CC(C)(C)OC(=O)N1[C@H](CO)CC(F)(F)[C@H]1n1cnc2c(Cl)ncnc21,-,LAI,PBMC,>100 µM
Cc1cn([C@H]2CO[C@@H](COP(=O)(N[C@@H](C)C(=O)OC(C)(C)C)Oc3ccccc3)O2)c(=O)[nH]c1=O,RT-M184V,LAI,PBMC,>100 µM